Test results: article PMC8381740, “P-I metalloproteinases and L-amino acid oxidases from Bothrops species inhibit angiogenesis” (2021)

The chains behind the UniProt entries cited, without tags or fusion partners. Residues count along the entry.
UniProt P0CC17, 19-506 limits assumed: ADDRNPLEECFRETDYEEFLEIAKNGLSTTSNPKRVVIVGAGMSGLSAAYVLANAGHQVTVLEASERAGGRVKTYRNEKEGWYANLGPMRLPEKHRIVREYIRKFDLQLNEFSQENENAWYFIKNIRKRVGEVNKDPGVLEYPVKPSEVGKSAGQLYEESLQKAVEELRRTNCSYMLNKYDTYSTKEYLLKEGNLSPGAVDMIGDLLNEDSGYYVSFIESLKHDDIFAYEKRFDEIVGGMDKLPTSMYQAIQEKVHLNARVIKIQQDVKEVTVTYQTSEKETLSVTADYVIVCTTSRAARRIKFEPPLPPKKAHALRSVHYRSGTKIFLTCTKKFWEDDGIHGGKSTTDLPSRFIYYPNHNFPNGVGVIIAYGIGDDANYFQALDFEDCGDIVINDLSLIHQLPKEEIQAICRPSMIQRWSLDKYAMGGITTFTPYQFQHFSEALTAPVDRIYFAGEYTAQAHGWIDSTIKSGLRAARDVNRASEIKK
UniProt Q6TGQ8, 19-502 limits assumed: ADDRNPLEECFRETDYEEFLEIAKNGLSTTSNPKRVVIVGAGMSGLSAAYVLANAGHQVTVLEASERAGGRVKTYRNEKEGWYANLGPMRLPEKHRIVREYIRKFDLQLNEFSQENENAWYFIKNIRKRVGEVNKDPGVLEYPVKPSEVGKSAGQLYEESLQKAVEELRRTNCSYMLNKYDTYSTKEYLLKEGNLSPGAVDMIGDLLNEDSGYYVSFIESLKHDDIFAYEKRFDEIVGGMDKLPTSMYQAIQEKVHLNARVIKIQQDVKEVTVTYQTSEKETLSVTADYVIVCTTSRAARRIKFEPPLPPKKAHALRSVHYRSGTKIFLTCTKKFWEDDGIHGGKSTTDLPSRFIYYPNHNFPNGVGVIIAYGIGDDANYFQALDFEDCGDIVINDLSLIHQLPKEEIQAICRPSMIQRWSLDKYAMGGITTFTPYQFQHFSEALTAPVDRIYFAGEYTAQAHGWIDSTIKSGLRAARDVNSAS

Legend:
BaLAAO = BaLAAO (Bothrops atrox, UniProt P0CC17); assay: H2O2 production, peroxidase/o-dianisidine dye assay, […] nm; conditions: 10 mM substrate; 0.2 M Tris-HCl pH 8.0; 30 °C; 1 h
BmLAAO = BmLAAO (Bothrops moojeni, UniProt Q6TGQ8); assay: as above; conditions: 10 mM substrate; 0.2 M Tris-HCl pH 8.0; 30 °C; 1 h

| SMILES | H2O2 production, peroxidase/o-dianisidine dye assay, 410 nm (BaLAAO) | H2O2 production, peroxidase/o-dianisidine dye assay, 410 nm (BmLAAO) |
| --- | --- | --- |
| CSCC[C@H](N)C(=O)O | BaLAAO exhibited had high specific activity towards L-Met, L-Leu, L-His | BmLAAO showed high specificity towards L-Leu L-Met L-His L-Trp L-Tyr L-Phe L-Val |
| CC(C)C[C@H](N)C(=O)O | BaLAAO exhibited had high specific activity towards L-Met, L-Leu, L-His | BmLAAO showed high specificity towards L-Leu L-Met L-His L-Trp L-Tyr L-Phe L-Val |
